Patent US8067442B2, “Heterocyclic antiviral compounds” (Roche Palo Alto LLC, priority 2008, dated 2011)

Target: HCV polymerase (NS5B570n-Con1) (Hepatitis C virus genotype 1b, UniProt Q9WMX2)
Conditions: read-out: IC50, NS5B polymerase assay; Table I; cIRES template unless otherwise noted

Compared with `CC(C)(C)c1cc(-c2ccc[nH]c2=O)cc2c(C(=O)N3CC(CNS(C)(=O)=O)C3)coc12`, `CC(C)(C)c1cc(-c2ccc[nH]c2=O)cc2c(C(=O)N3CCC[C@@H](NS(C)(=O)=O)C3)coc12` is 2.3-fold higher in IC50: 83 nM for the first, 194 nM for the second.

Going from `CC(C)(C)c1cc(-c2ccc[nH]c2=O)cc2c(C(=O)N3CCC(N)CC3)coc12` to `CN1CCCN(C(=O)c2coc3c(C(C)(C)C)cc(-c4ccc[nH]c4=O)cc23)CC1`, the IC50 rises from 24 nM to 1540 nM (64-fold).

Going from `CC(C)(C)c1cc(-c2ccc[nH]c2=O)cc2c(C(=O)Nc3cccc(O)c3)coc12` to `CC(C)(C)c1cc(-c2ccc[nH]c2=O)cc2c(-c3ccc(CN)cc3)coc12`, the IC50 falls from 1890 nM to 349 nM (5.4-fold).

Going from `CC(C)(C)OC(=O)NCC1CCCN(C(=O)c2coc3c(C(C)(C)C)cc(-c4ccc[nH]c4=O)cc23)C1` (centres unmarked) to `CC(C)(C)c1cc(-c2ccc[nH]c2=O)cc2c(C(=O)N3CCC[C@@H]3CO)coc12`, the IC50 falls from 1700 nM to 190 nM (8.9-fold). The second is the more potent here.
